Here are results for 56 compounds from PubChem BioAssay AID602346 (Broad Institute, 2012).

Only a part is listed here, and it is no random draw. Active and inactive are the calls of the source. Cut-off read from the data, not from the text of the source: active = inhibition above about 50% (passing the limit was not always enough); inconclusive = no clear call, values can overlap the other calls; inactive = below about 31%.

A short description of this assay: HIV Vif self-association inhibitors, primary screen, imaging, HEK293T, single point (AID 602346). The conditions noted are these: HEK293T cells, Vif self-association by quenched fluorescence, 24 h, at 7.49 µM, stronger effect = higher value.
As for `N#Cc1ccc(C(=O)NCC2(N3CCCCC3)CCCCC2)cc1`, the inhibition was inactive: -1.34%.
The result for `CC(C)(C)OC(=O)N1CCC(N(C(=O)c2ccccc2)c2ccc(Cl)cc2)CC1` reads inactive: 3.02%.
For the compound `CC(C)(C)n1nnnc1C(c1cccc2ccccc12)N1CCC(n2c(=O)[nH]c3ccccc32)CC1` (stereo unspecified), the inhibition was inactive: -5.45%.
As for `CN(C)C1(CNC(=O)c2cccc(C#N)c2)CCCCC1`, the inhibition was inactive: -0.282%.
Regarding `c1ccc(CN2CCC(Nc3ccccc3)CC2)cc1`, the inhibition was inactive: 5.21%.
As for `Cc1cc(N(CCCl)CCCl)ccc1C=O`, the inhibition is inactive: 8.02%.
For the compound `CCCN1CCC(Nc2cc(OC)cc(OC)c2)CC1`, the inhibition was inactive: 8.71%.
Under `O=c1[nH]c2ccccc2n1C1CCN(C(c2ccccc2)c2nnnn2C2CCCC2)CC1` (stereo unspecified) stands inactive: -7.34%.
The result for `CCN1CCC(Nc2ccc(Cl)cc2)CC1` reads inactive: -1.47%.
In the case of `N#CC1(Nc2ccccc2)CCN(CCc2ccccc2)CC1`, the inhibition is inactive: 6%.
The result for `CSc1ccc(C(=O)NCC2(N3CCOCC3)CCCCC2)cc1` reads inactive: -1.15%.
Under `O=C(NCC1(N2CCCCC2)CCCCC1)c1cccc([N+](=O)[O-])c1` stands inactive: -3.71%.
With `CC(C)(C)n1nnnc1C(c1ccccc1OC(F)(F)F)N1CCC(n2c(=O)[nH]c3ccccc32)CC1` (stereo unspecified), the inhibition was inactive: 11.2%.
For `O=C(NCC1(N2CCCCC2)CCCCC1)c1ccc(OC(F)F)cc1`, the inhibition is inactive: 6.8%.
Under `COc1cc(C(=O)NCC2(N3CCCCC3)CCCCC2)ccc1OC(F)F` stands inactive: -13.5%; under `O=C(NCC1(N2CCOCC2)CCCCC1)c1cc(=O)[nH]c2ccccc12`, inactive: 1.33%.
The result for `CCCCn1nnnc1C(c1cccc2ccccc12)N1CCC(n2c(=O)[nH]c3ccccc32)CC1` (stereo unspecified) reads inactive: 1.16%; that for `CN1CCN(CCOC(=O)C(O)(c2ccccc2)c2ccccc2)CC1`, inactive: 4.09%.
Under `COc1ccc(NC2CCN(C(=O)OC(C)(C)C)CC2)cc1` stands inactive: -0.264%; under `O=C(NCC1(N2CCCCC2)CCCCC1)c1cccc(C(F)(F)F)c1`, inactive: -6.38%.
Take `COc1cc(OC)c(C(=O)NCC2(N(C)C)CCCCC2)cc1OC`: the inhibition is inactive: -1.36%.
For `O=C(NCC1(N2CCOCC2)CCCCC1)c1cc(F)c(F)cc1Cl`, the inhibition is inactive: -1.39%.
The result for `CC(C)c1ccc(NC2CCN(C(=O)OC(C)(C)C)CC2)cc1` reads inactive: -4.27%; that for `CCCCn1nnnc1C(c1ccccc1OC(F)(F)F)N1CCC(n2c(=O)[nH]c3ccccc32)CC1` (stereo unspecified), inactive: 6.24%; that for `COc1ccc(CN(CCCl)CCCl)cc1Cl`, inactive: -5%.
The result for `CN(C)c1cccc(C(=O)NCC2(N3CCCCC3)CCCCC2)c1` reads inactive: 0.507%; that for `Cc1ccc(C(=O)NCC2(N(C)C)CCCCC2)o1`, inactive: 9.46%; that for `CCCOc1ccc(C(=O)NCC2(N(C)C)CCCCC2)cc1OC`, inactive: -8.99%.
Turning to `O=C(NCC1(N2CCCCC2)CCCCC1)c1cncc(Br)c1`, the inhibition was inactive: 2.02%.
For `CN1CCC(Nc2cccc(F)c2)CC1`, the inhibition was inactive: -0.765%.
The result for `CSc1ccccc1C(=O)NCC1(N2CCCCC2)CCCCC1` reads inactive: 1.69%; that for `Cc1cccc(NC2(C#N)CCN(Cc3ccccc3)CC2)c1`, inactive: -1.74%.
Under `COc1ccc(C(=O)NCC2(N3CCCCC3)CCCCC2)cc1` stands inactive: 0.0295%; under `CC(C)(C)OC(=O)N1CCC(N(C(=O)c2ccccc2)c2ccc(F)cc2)CC1`, inactive: -5.06%.
The result for `COc1ccc(C(=O)NCC2(N3CCCCC3)CCCCC2)c(OC)c1OC` reads inactive: -14.1%; that for `O=C(NCC1(N2CCCCC2)CCCCC1)c1ccc(=O)[nH]c1`, inactive: -0.603%.
With `CCCCn1nnnc1C(c1cccs1)N1CCC(n2c(=O)[nH]c3ccccc32)CC1` (stereo unspecified), the inhibition was inactive: -3.88%.
Under `O=C(NCC1(N2CCCCC2)CCCCC1)c1cccs1` stands inactive: 2.79%; under `O=C(OC1CN2CCC1CC2)C1c2ccccc2Oc2ccccc21` (stereo unspecified), inactive: -7.35%; under `N#CC1(Nc2ccccc2)CCN(Cc2ccccc2)CC1`, inactive: 1.05%.
Turning to `O=C(NCC1(N2CCCCC2)CCCCC1)c1ccc(Cl)s1`, the inhibition was inactive: -1.05%.
Under `COc1ccc(Cl)cc1C(=O)NCC1(N2CCOCC2)CCCCC1` stands inactive: -2.63%.
Regarding `CCOC(=O)N1CCC(Nc2ccc(OC)cc2)CC1`, the inhibition is inactive: -13.1%.
The result for `CCCCn1nnnc1C(c1ccc(OC)cc1)N1CCC(n2c(=O)[nH]c3ccccc32)CC1` (stereo unspecified) reads inactive: -2.95%; that for `Cc1cc(C)cc(N(C(=O)c2ccccc2)C2CCN(C(=O)OC(C)(C)C)CC2)c1`, inactive: -14.7%.
As for `O=C(NCC1(N2CCOCC2)CCCCC1)c1cc2ccccc2o1`, the inhibition was inactive: -3.81%.
The result for `O=C(NCC1(N2CCCCC2)CCCCC1)c1ccc(F)cc1` reads inactive: 12.3%; that for `O=P1(N(CCCl)CCCl)SCCCS1`, inactive: 2.33%.
Under `CCCCn1nnnc1C(c1cc2ccccc2o1)N1CCC(n2c(=O)[nH]c3ccccc32)CC1` (stereo unspecified) stands inactive: -0.662%; under `CCCCOc1ccc(C(=O)NCC2(N3CCOCC3)CCCCC2)cc1`, inactive: -2.6%.
Turning to `CCOC(=O)N1CCC(Nc2ccc(F)cc2)CC1`, the inhibition was inactive: -4.52%.
For `O=C1CCN(Cc2ccccc2)CC1`, the inhibition is inactive: 7.28%.
The result for `CCOc1ccc(C)cc1CN(CCCl)CCCl` reads inactive: 2.46%.
Under `COc1cc(C(=O)NCC2(N(C)C)CCCCC2)ccc1OC(F)F` stands inactive: 0.787%; under `CCOC(=O)N1CCC(Nc2cccc(C)c2)CC1`, inactive: 2.94%.
On to `O=c1[nH]c2ccccc2n1C1CCN(C(c2cccc3ccccc23)c2nnnn2C2CCCC2)CC1` (stereo unspecified), for which the inhibition is inactive: 3.45%.
